# Reference: article PMC12299576 (Viruses, 2025)
# Test system: HTNV-76118 strain
# Format: cell-based, Hantaan virus (HTNV)
# Conditions: selection index, CC50/EC50, Vero E6
row,SMILES,SI
1,"NC(=O)c1ncn([C@@H]2O[C@H](CO)[C@@H](O)[C@H]2O)n1 [Ribavirin, ribavirin, reference compound]",>9.74
2,"CC(C)CC(=O)c1c(O)cc(O)c2c1OC1=C(C(=O)C(C)(C)C(=O)C1(C)C)C2CC(C)C (centres unmarked) [Rhodomyrtosone B, rhodomyrtosone B]",2.77
3,"CC(C)CC(=O)c1c(O)cc2c(c1O)C(CC(C)C)C1=C(O2)C(C)(C)C(=O)C(C)(C)C1=O (centres unmarked) [Rhodomyrtone, rhodomyrtone]",17.03
4,"CC(C)CC(=O)c1c(O)c2c(c3c1OC1(O)C(C(=O)C(C)(C)C(=O)C1(C)C)C3CC(C)C)OC1=C(C(=O)C(C)(C)C(=O)C1(C)C)C2CC(C)C (centres unmarked) [Callistemontrimer B, callistemontrimer B]",6.05
5,"CC(C)CC(=O)c1c(O)c2c(c3c1OC1(O)C(C(=O)C(C)(C)C(=O)C1(C)C)C3C(C)C)OC1=C(C(=O)C(C)(C)C(=O)C1(C)C)C2CC(C)C (centres unmarked) [Callistemontrimer A, callistemontrimer A]",7.28
